A mixed list of measured activities; the numbers were collected in NIAID ChemDB.

Common to all: target-level tests

Neighbouring rows are from separate reports.

| SMILES | changes | tested at | method | read-out | protein | value |
|---|---|---|---|---|---|---|
| Cn1c2ccccc2c(=O)c2c(O)cccc21 | - | 0.16 µg/mL | nucleotide incorporation | inhibition | Protein kinase C | 12.1% |
| O=C(CCCCC(=O)Nc1sc2c(c1C(=O)O)CCCC2)Nc1sc2c(c1C(=O)O)CCCC2 | - | - | absorbance | IC50 | Cyclophilin A | 70.2 µM |
| O=C(O)c1cc(O)c(O)c(O)c1 | - | - | flow cytometry | IC50 | CD4 | >20 µM |
| O=C(O[C@H]1Cc2c(O)cc(O)cc2O[C@@H]1c1cc(O)c(O)c(O)c1)c1cc(O)c(O)c(O)c1 | - | - | ELISA | IC50 | CXCR4 | >20 µM |
| O=C(O)c1ccc(O)c(O)c1 | - | 100 µg/mL | flow cytometry | inhibition | CD4 | 9% |
| C/C(CC(=O)Nc1ccc(C(N)=O)cc1)=N\NC(=O)COc1ccc2ccccc2c1 | - | - | absorbance | IC50 | Cyclophilin A | 72.8 µM |
| O=C(C(=O)N1CCN(C(=O)c2ccccc2)CC1)c1c[nH]c2ccccc12 | - | - | radiometric | IC50 | gp120 | ~60 µM |
| C[C@@H]1Cc2c(-c3cc(-c4ccc5ccccc5c4O)c(O)c4ccccc34)c(O)cc(O)c2[C@@H](C)N1 | - | - | - | IC50 | Protein kinase C | 30 µM |
| COc1cc(/C=C2\C(=O)N(c3ccccc3)N=C2c2ccccc2)cc(Br)c1OCC(N)=O | - | - | absorbance | IC50 | Cyclophilin A | 6.98 µM |
| COCCNC(=O)[C@@H](NC(=O)[C@H](Cc1ccc(OC)c(OC)c1OC)C[C@H](O)[C@H](Cc1ccccc1)NC(=O)OC(C)(C)C)C(C)C | - | - | - | IC50 | Cathepsin D | 0.1 µM |
| C=CCN(C(=O)OCc1ccccc1)C1CCN(CCC(C)(c2ccccc2)C2Nc3ccccc3S(=O)(=O)N2)CC1 | - | - | - | IC50 | CCR2 | >1 µM |
| Cn1c2ccccc2c(=O)c2c(O)cccc21 | - | 0.16 µg/mL | nucleotide incorporation | inhibition | Protein kinase C | 12.1% |
| O=C(O[C@@H]1Cc2c(O)cc(O)cc2O[C@@H]1c1cc(O)c(O)c(O)c1-c1c([C@H]2Oc3cc(O)cc(O)c3C[C@H]2OC(=O)c2cc(O)c(O)c(O)c2)cc(O)c(O)c1O)c1cc(O)c(O)c(O)c1 | - | - | ELISA | IC50 | CXCR4 | >20 µM |
| Oc1cccc(O)c1O | - | 100 µg/mL | flow cytometry | inhibition | CD4 | 32% |
| COc1ccc(CCNC(=O)c2ccc(C(=O)NCCc3ccc(OC)c(OC)c3)nc2)cc1OC | - | - | absorbance | IC50 | Cyclophilin A | 43.75 µM |
| O=S(=O)(c1cccc2cnccc12)N1CCNCC1 | - | 20 µg/mL | nucleotide incorporation | inhibition | Protein kinase C | 39.1% |
| CCCCCCC[C@H]1CC2CCC3=C(C(=O)OCCCCN=C(N)N)C(CCCCC)N=C(N1)N32 | - | - | - | IC50 | Protein kinase C | 6.8 µM |
| Clc1cc(CN2CCCNCCNCCCNCC2)cc(Cl)n1 | CXCR4-D171N | - | - | fold resistance | CXCR4 | 12.6 |
| O=C(O)Cc1cc(O)ccc1O | - | 20 µg/mL | flow cytometry | inhibition | CD4 | 91% |
| O=C1c2ccccc2-[n+]2ccc3c([nH]c4ccccc43)c21 | - | 700 µM | ELISA | inhibition | p56lck tyrosine kinase | 90% |
| O=C(O)CCc1ccc(O)c(O)c1 | - | 100 µg/mL | flow cytometry | inhibition | CD4 | 0% |
| O=S(=O)(c1cccc2cnccc12)N1CCNCC1 | - | 20 µg/mL | nucleotide incorporation | inhibition | Protein kinase C | 39.1% |
| O=C(O)Cc1ccc(O)c(O)c1 | - | 20 µg/mL | flow cytometry | inhibition | CD4 | 89% |
| CCCCCCCCCC1N=C(N)N2CCCC2=C1C(=O)OCCCCN=C(N)N | - | - | - | IC50 | Protein kinase C | 9.6 µM |
| C=C[C@@H]1CN(C(=O)c2ccc3ccn(C)c3c2)C[C@H]1CN1CCC(c2ccccc2)CC1 | - | - | - | IC50 | CCR3 | 0.0007 µM |

The last 3 rows once more:

SMILES,changes,tested at,method,read-out,protein,value
O=C(O)Cc1ccc(O)c(O)c1,-,20 µg/mL,flow cytometry,inhibition,CD4,89%
CCCCCCCCCC1N=C(N)N2CCCC2=C1C(=O)OCCCCN=C(N)N,-,-,-,IC50,Protein kinase C,9.6 µM
C=C[C@@H]1CN(C(=O)c2ccc3ccn(C)c3c2)C[C@H]1CN1CCC(c2ccccc2)CC1,-,-,-,IC50,CCR3,0.0007 µM

ICn: concentration for n% inhibition. Percent inhibition refers to the dose given; in toxicity tests it is the harm to the cells. Fold resistance: result on the changed form divided by that on wild type. An empty or dashed field is not shown.